Measured values from several laboratories, pooled; numbers as filed in NIAID ChemDB.

All rows: growth or infection tests; species: Mycobacterium tuberculosis

Percent inhibition refers to the dose given; in toxicity tests it is the harm to the cells. MIC bound: limit read from a one-dose screen. Rows are shuffled and stem from different studies. An empty or dashed field is not shown. A number after MIC or MFC names an inhibition level or a share of isolates. ECn is the concentration giving n% inhibition of infection, replication or growth.

structure,method,read-out,strain,cell line,dose,value
CCCCCCCCCCCCCCCCCCCCCCC(=O)OCCc1ccc(OC)cc1,,MIC,H37Rv (ATCC 27294),,,>128 µg/mL
CC[C@H](C)[C@@H](NC(=O)[C@@H](CCC(=O)O)NC(=O)[C@H](Cc1cnc[nH]1)NC(=O)[C@H](CC(C)C)NC(=O)[C@H](N)Cc1ccccc1)C(=O)N[C@H]1CCCCNC1=O,,MIC,,,,12.5 µg/mL
COc1cc(C(O)(CCN(C)C)C(c2cc(-c3ccncc3)cnc2OC)c2cccc(OC)c2F)cc(OC)n1,fluorescence,EC90,H37Rv,,,28.06 µM
CC(=O)NC(ON1C(=O)COc2ccccc21)C(Cl)(Cl)Cl,BACTEC,inhibition,H37Rv,,12.5 µg/mL,14%
c1cc2c(N3CCOCC3)cc(N3CCOCC3)nc2nc1N1CCCCC1,BACTEC,inhibition,H37Rv,,6.25 µg/mL,0%
CC/C(C)=N\NC(=O)c1cccnc1,BACTEC,inhibition,H37Rv,,12.5 µg/mL,11%
CC(=O)Nc1ccc(-n2cc(C(=O)O)c(=O)c3cc(F)c(N4CCN(C)CC4)cc32)cc1,BACTEC,inhibition,H37Rv,,6.25 µg/mL,15%
O=c1[nH]c(=O)n(C2C=CC(O)C2)cc1Nc1ccc(Oc2ccccc2)cc1,turbidity,MIC99,H37Rv,,,40 µg/mL
COC1(CO)C(=O)N(C)CC(=O)N1C,,MIC,PZA-R,,,6.3 µg/mL
Cc1ccc(C(=O)N=Nc2c(O)[nH]c3ccccc23)cc1,resazurin,MIC50,H37Rv,,,>50 µg/mL
CCOC(=O)Cc1csc(NC(=O)CCl)n1,,inhibition,H37Rv,,12.5 µg/mL,86%
COc1cc(C(O)(CCN(C)C)C(c2cc(-c3ccc(F)cc3)cnc2OC)c2cccc(OC)c2F)cc(OC)n1,fluorescence,EC90,H37Rv,,,13.67 µM
CCn1cc(C(=O)O)c(=O)c2cc(F)c(N3CCNCC3)cc21,,MIC50,22 isolates,,,4 µg/mL
CO[C@H]1/C=C/O[C@@]2(C)Oc3c(C)c(O)c4c(O)c(c5c(c4c3C2=O)Nc2c(O)cc(N3CCN(CC=C(C)C)CC3)cc2O5)NC(=O)/C(C)=C\C=C\[C@H](C)[C@H](O)[C@@H](C)[C@@H](O)[C@@H](C)[C@H](OC(C)=O)[C@@H]1C,,MIC,H37Rv,,,0.035 µg/mL
COc1ccc2c(c1)c1c(C)c3cnccc3c(C)c1n2CCCN1C(=O)c2ccccc2C1=O,resazurin,MIC bound,H37Rv,,,<6.25 µg/mL
CCOC(=O)Cc1csc(/N=C2/NC(=O)/C(=C\c3ccc(C(=O)OC)cc3)S2)n1,,MIC,H37Rv,,,>12.5 µg/mL
S=P(N1CC1)(N1CC1)N1CC1,resazurin,inhibition,H37Rv,,6.25 µg/mL,2%
C=CCN1CCN(c2cc(O)c3c(c2)Oc2c4c(O)c5c(O)c(C)c6c(c5c2N3)C(=O)[C@@](C)(O/C=C/[C@H](OC)[C@@H](C)[C@@H](OC(C)=O)[C@H](C)[C@H](O)[C@H](C)[C@@H](O)[C@@H](C)/C=C/C=C(/C)C(=O)N4)O6)CC1,,MIC,H37Rv,,,0.035 µg/mL
Cc1ccc2c(Cl)c(C)c(Cl)nc2n1,BACTEC,EC50,H37Rv,,,>6.25 µg/mL
CCn1cc(C(=O)O)c(=O)c2cc(F)c(N3CCN(C(=O)c4ccc(Cl)cc4)CC3)cc21,BACTEC,inhibition,H37Rv,,6.25 µg/mL,24%
O=[N+]([O-])c1ccc(-c2nnc(SCc3ccccc3[N+](=O)[O-])s2)o1,,inhibition,H37Rv,,6.25 µg/mL,98%
O=C(NC1=C(Cl)C(=O)c2ccccc2C1=O)C(=O)c1c(O)c2ccccc2oc1=O,BACTEC,inhibition,H37Rv,,12.5 µg/mL,78%
CN1C[C@H](c2ccccc2)[C@]2(CC3C=CC=CC3C2=O)[C@]12C(=O)c1cccc3cccc2c13,broth dilution / resazurin,EC50,H37Rv,,,>100 µM
CCOC(=O)C(=O)C(C(=O)c1ccccn1)c1nc2n(c1O)C(=N)N=N2,resazurin,inhibition,H37Rv,,6.25 µg/mL,-8%
Cc1c(F)c(N2CCNC(C)C2)cc2c1c(=O)c(C(=O)O)cn2C1CC1,,Mean MIC,44 isolates (resistant),,,1.189 µg/mL
CCOC(=O)Cc1csc(/N=C2/NC(=O)/C(=C\c3ccc([N+](=O)[O-])o3)S2)n1,,MIC,H37Rv,,,>12.5 µg/mL
Cc1ccc2c(Cl)c(Cc3ccccc3)c(N3CCCCC3)nc2n1,BACTEC,inhibition,H37Rv,,6.25 µg/mL,41%
NCCCNc1ccnc2cc(Cl)ccc12.[Cl][Pt][Cl],resazurin,MIC,H37Rv,,,125 µg/mL
COc1cc(C(O)(CCN(C)C)C(c2cc(-c3ccccn3)cnc2OC)c2cccc(OC)c2F)cc(OC)n1,fluorescence,EC90,H37Rv,,,7.65 µM
CCn1cc(C(=O)O)c(=O)c2cc(F)c(N3CCN(CC(=O)c4ccccc4)CC3)cc21,BACTEC,inhibition,H37Rv,,6.25 µg/mL,53%
CO[C@H]1/C=C/O[C@@]2(C)Oc3c(C)c(O)c4c(O)c(c5c(c4c3C2=O)Nc2c(O)cc(N3CCN(CC(C)C)CC3)cc2O5)NC(=O)/C(C)=C\C=C\[C@H](C)[C@H](O)[C@@H](C)[C@@H](O)[C@@H](C)[C@H](OC(C)=O)[C@@H]1C,,MIC,H37Rv,,,0.017 µg/mL
Cc1cn2c(C(=O)NCc3ccc(N4CCN(c5ccc(C(F)(F)F)cn5)CC4)c(F)c3)c(C)nc2s1,luminescence,EC50,H37Rv,Human liver microsomes,,10.2 µM
OC(COc1ccc2c(c1)CCC2)Cn1cnc2ccccc21,fluorescence,MIC,H37Rv,,,25 µg/mL
CO[C@H]1/C=C/O[C@@]2(C)Oc3c(C)c(O)c4c(O)c(c(/C=N/N=C/N5CCCCC5)c(O)c4c3C2=O)NC(=O)/C(C)=C\C=C\[C@H](C)[C@H](O)[C@@H](C)[C@@H](O)[C@@H](C)[C@H](OC(C)=O)[C@@H]1C,,MIC,isolates 3,,,3.12 µg/mL
O=C1c2ccccc2C(=O)N1N=Cc1cccc(O)c1O,resazurin,MIC50,H37Rv,,,>50 µg/mL
O=C1NC(CCO)C(=O)NC1CCO,BACTEC,inhibition,H37Rv,,12.5 µg/mL,23%
CN1CCN(c2cc3c(cc2F)c(=O)c(C(=O)O)cn3-c2ccc(N)cc2)CC1,BACTEC,inhibition,H37Rv,,6.25 µg/mL,84%
CCCCCCCCCCCCCCCC(=O)OCCc1ccc(O)cc1,,MIC,H37Rv (ATCC 27294),,,>128 µg/mL
Clc1cccc(CSc2ncn[nH]2)c1,,MIC,My 331/88,,,1000 µM
CN1C/C(=C\c2ccc(N(C)C)cc2)C(=O)/C(=C/c2ccc(N(C)C)cc2)C1,BACTEC,inhibition,H37Rv,,12.5 µg/mL,0%
N#Cc1ccc(CSc2ncn[nH]2)cc1,,MIC,My 331/88,,,>1000 µM
O=C(O)c1cn(C2CC2)c2c(Cl)c(N3C[C@@H]4CCCN[C@@H]4C3)c(F)cc2c1=O,,MIC90,Susceptible,,,0.13 µg/mL
CC(=O)Nc1ccc(/C=N/NC(N)=S)cc1,BACTEC,EC50,9 strains,,,≤0.5 µg/mL
O=C1C(Cl)=C(NCCCN2CCN(CCCNC3=C(Cl)C(=O)c4ccccc4C3=O)CC2)C(=O)c2ccccc21,BACTEC,MIC bound,H37Rv,,,>12.5 µg/mL
C#CCNCCNc1ccnc2cc(Cl)ccc12,resazurin,MIC,H37Rv,,,15.6 µg/mL
O=C(NN1C(=O)c2ccccc2C1=O)c1cc(O)cc(O)c1,resazurin,MIC50,H37Ra,,,>50 µg/mL
Cc1ccc(Nc2cn(C3C=CC(O)C3)c(=O)n(C3C=CC(O)C3)c2=O)cc1,turbidity,MIC99,H37Rv,,,40 µg/mL
Cc1nc2c(n1C)C(=O)c1nc[nH]c(=O)c1C2=O,BACTEC,inhibition,H37Rv,,12.5 µg/mL,0%
C#CCN(CC#C)CCCCNc1ccnc2cc(Cl)ccc12,resazurin,MIC,H37Rv,,,15.6 µg/mL
N#C/C(c1nc2ccccc2[nH]1)=c1\s/c(=C(\N)O)c(=N)n1-c1ccccc1,resazurin,MIC bound,H37Rv,,,>6.25 µg/mL
CCn1cc(C(=O)O)c(=O)c2cc(F)c(N3CCN(CC(C)=O)CC3)c(F)c21,BACTEC,MIC,H37Rv,VERO,,3.13 µg/mL
Cc1ccc(N2C(=O)c3cccc([N+](=O)[O-])c3C2=O)c(O)c1,resazurin,MIC50,H37Ra,,,>50 µg/mL
COc1ccc(N/C=C/C2=[N+](C)c3ccccc3C2(C)C)c(OC)c1,BACTEC,inhibition,H37Rv,,6.25 µg/mL,74%
CO[C@H]1/C=C/O[C@@]2(C)Oc3c(C)c(O)c4c(O)c(c5c(c4c3C2=O)Nc2c(O)cc(N3CCN4CCCC4C3)cc2O5)NC(=O)/C(C)=C\C=C\[C@H](C)[C@H](O)[C@@H](C)[C@@H](O)[C@@H](C)[C@H](OC(C)=O)[C@@H]1C,,MIC,H37Rv,,,0.15 µg/mL
O=C1c2cccc([N+](=O)[O-])c2C(=O)N1c1cccc(O)c1,resazurin,MIC50,H37Rv,,,>50 µg/mL
CCCCCCCCCCCCCCCCCCCCCCCCCC(=O)OCCc1ccc(O)cc1,,MIC,H37Rv (ATCC 27294),,,>128 µg/mL
FC(F)(F)c1cc(CSc2ncn[nH]2)cc(C(F)(F)F)c1,,MIC,My 331/88,,,125 µM
Cc1ccc2c(O)c(Cc3ccccc3)c(=O)[nH]c2n1,BACTEC,inhibition,H37Rv,,6.25 µg/mL,0%
CCOc1cc(N(CC)CC)cc2oc3cc(=[N+](CC)CC)ccc-3nc12.[Cl-],BACTEC,MIC bound,H37Rv,,,>12.5 µg/mL
CCOC(=O)Cc1csc(NC(=O)C(Cl)c2ccccc2)n1,,MIC,H37Rv,,,>12.5 µg/mL
CCCCCCCCCCCCCCCCCCCC(=O)OCCc1ccc(O)cc1,,MIC,H37Rv (ATCC 27294),,,>128 µg/mL
O=c1c(Nc2ccccc2)cn(C2C=CC(O)C2)c(=O)n1C1C=CC(O)C1,turbidity,MIC99,H37Rv,,,40 µg/mL
COc1cc2cc3c4cc(OC)c(OC)cc4cc[n+]3c(C)c2cc1OC,BACTEC,MIC bound,H37Rv,,,>12.8 µg/mL
O=C(N=Nc1c(O)[nH]c2ccccc12)c1ccco1,resazurin,MIC50,H37Rv,,,>50 µg/mL
Cc1ccc(N2C(=O)CCSC2=S)cc1Cl,BACTEC,MIC,H37Rv,,,>12.5 µg/mL
Cn1c([N+](=O)[O-])cnc1-c1nnc(SCc2ccc([N+](=O)[O-])cc2)s1,,MIC,H37Rv,,,>6.25 µg/mL
CC1(C)CCC(NC(=O)c2cc3c(C#N)ccnc3[nH]2)CC1,resazurin,MIC90,H37Rv,,,0.051 µg/mL
C=CCSc1nnc(-c2ccc([N+](=O)[O-])o2)s1,,MIC,H37Rv,,,>6.25 µg/mL
O=C1CN(c2ccccc2)C(=O)CN1/N=C/c1ccc[nH]1,BACTEC,inhibition,H37Rv,,12.5 µg/mL,0%
CO[C@H]1/C=C/O[C@@]2(C)Oc3c(C)c(O)c4c(O)c(c5c(c4c3C2=O)Nc2c(O)cc(N3CCN(CCC(C)C)CC3)cc2O5)NC(=O)/C(C)=C\C=C\[C@H](C)[C@H](O)[C@@H](C)[C@@H](O)[C@@H](C)[C@H](OC(C)=O)[C@@H]1C,,MIC,H37Rv,,,0.07 µg/mL
C[C@H]1COc2c(N3CCN(C)CC3)c(F)cc3c(=O)c(C(=O)O)cn1c23,,MIC50,250 isolates,,,0.5 µg/mL
C#CCNCCCNc1ccnc2cc(Cl)ccc12,resazurin,MIC,H37Rv,,,15.6 µg/mL
O=C(N=Nc1c(O)[nH]c2ccc(Br)cc12)c1cccs1,resazurin,MIC50,H37Rv,,,>50 µg/mL
O=[N+]([O-])c1ccc(CSc2nnc(-c3ccc([N+](=O)[O-])o3)s2)cc1,,inhibition,H37Rv,,6.25 µg/mL,99%
CCOC(=O)C1CCCN1C(=O)c1c2nc3c(C(=O)N4CCCC4C(=O)OCC)ccc(C)c3oc-2c(C)c(=O)c1N,BACTEC,inhibition,H37Rv,,12.5 µg/mL,0%
COC(=O)c1c(C)cc(O)cc1O,,MIC,H37Rv (ATCC 27294),,,>128 µg/mL
C=CCNc1nc2c(s1)C(=O)c1ccccc1C2=O,BACTEC,MIC,H37Rv,,,3.13 µg/mL
COc1cc(C(O)(CCN(C)C)C(c2cc(-c3cccnc3)cnc2OC)c2cccc(OC)c2F)cc(OC)n1,fluorescence,EC90,H37Rv,,,19.16 µM
CN(C)C(=S)SCc1ccc(Cl)cc1Cl,BACTEC,inhibition,H37Rv,,128 µg/mL,97%
COc1cc(C(O)(CCN(C)C)C(c2cc(Br)cnc2OC)c2cccc(OC)c2F)cc(OC)n1,fluorescence,EC90,H37Rv,,,10.77 µM

The last 8 rows once more:

structure	method	read-out	strain	cell line	dose	value
O=C(N=Nc1c(O)[nH]c2ccc(Br)cc12)c1cccs1	resazurin	MIC50	H37Rv			>50 µg/mL
O=[N+]([O-])c1ccc(CSc2nnc(-c3ccc([N+](=O)[O-])o3)s2)cc1		inhibition	H37Rv		6.25 µg/mL	99%
CCOC(=O)C1CCCN1C(=O)c1c2nc3c(C(=O)N4CCCC4C(=O)OCC)ccc(C)c3oc-2c(C)c(=O)c1N	BACTEC	inhibition	H37Rv		12.5 µg/mL	0%
COC(=O)c1c(C)cc(O)cc1O		MIC	H37Rv (ATCC 27294)			>128 µg/mL
C=CCNc1nc2c(s1)C(=O)c1ccccc1C2=O	BACTEC	MIC	H37Rv			3.13 µg/mL
COc1cc(C(O)(CCN(C)C)C(c2cc(-c3cccnc3)cnc2OC)c2cccc(OC)c2F)cc(OC)n1	fluorescence	EC90	H37Rv			19.16 µM
CN(C)C(=S)SCc1ccc(Cl)cc1Cl	BACTEC	inhibition	H37Rv		128 µg/mL	97%
COc1cc(C(O)(CCN(C)C)C(c2cc(Br)cnc2OC)c2cccc(OC)c2F)cc(OC)n1	fluorescence	EC90	H37Rv			10.77 µM